Experimental data reported in US20160024159A1, “Potent and selective inhibitors of Nav1.7” (published 2016).

Assays:
Assay in all cases: cell-based or functional assay
[1] = target: human Nav1.4 voltage-gated sodium channel (human) (UniProt P35499)
[2] = target: human Nav1.7 voltage-gated sodium channel (human) (UniProt Q15858)
[3] = target: human voltage-gated sodium channel Nav1.3 (human) (UniProt Q9NY46)
[4] = target: human voltage-gated sodium channel Nav1.4 (human) (UniProt P35499)
[5] = target: human voltage-gated sodium channel Nav1.5 (human) (UniProt Q14524)
[6] = target: human voltage-gated sodium channel Nav1.7 (human) (UniProt Q15858)

Pra-[Nle6; Asp28]JzTx-V(1-29) (peptide; modification not given)
Nav1.4/Nav1.7 [1]: 13
PX hNav1.4 Tonic IC50 [1]: 78.4 nM
PX hNav1.7 Tonic IC50 [2]: 5.98 nM

Pra-[4-BrhE5; Nle6; Glu28]JzTx-V(1-29) (peptide; modification not given)
Nav1.4/Nav1.7 [1]: 207
PX hNav1.4 Tonic IC50 [1]: 47.9 nM
PX hNav1.7 Tonic IC50 [2]: 0.23 nM

Pra-[SeC2, 16; Nle6; Glu28]JzTx-V(1-29) (peptide; modification not given)
Nav1.4/Nav1.7 [1]: 61
PX hNav1.4 Tonic IC50 [1]: 58.1 nM
PX hNav1.7 Tonic IC50 [2]: 0.949 nM

Pra-[Nle6; 2-Nal7; Glu28]JzTx-V(1-29) (peptide; modification not given)
PX hNav1.7 Tonic IC50 [2]: 470 nM

Pra-[Nle6; 5-BrW7; Glu28]JzTx-V(1-29) (peptide; modification not given)
PX hNav1.7 Tonic IC50 [2]: 540 nM

Homodimeric Peptide No. 6 (peptide; modification not given)
Nav1.7 PX IC50 [2]: 0.414 nM

Homodimeric Peptide No. 2 (peptide; modification not given)
Nav1.7 PX IC50 [2]: 0.241 nM

Pra-[Nle6; Leu28]JzTx-V(1-29) (peptide; modification not given)
Nav1.4/Nav1.7 [1]: 9
PX hNav1.4 Tonic IC50 [1]: 25.9 nM
PX hNav1.7 Tonic IC50 [2]: 2.91 nM

Pra-[Nle6; hPhe7; Glu28]JzTx-V(1-29) (peptide; modification not given)
PX hNav1.7 Tonic IC50 [2]: > 1000 nM

Pra-[5-BrW5; Nle6; Glu28]JzTx-V(1-29) (peptide; modification not given)
PX hNav1.7 Tonic IC50 [2]: 53.5 nM

Pra-[Nle6, 23; Glu28]JzTx-V(1-29) (peptide; modification not given)
Nav1.4/Nav1.7 [1]: 59
PX hNav1.4 Tonic IC50 [1]: 102 nM
PX hNav1.7 Tonic IC50 [2]: 1.72 nM

Pra-[Nle6; 1-Nal7; Glu28]JzTx-V(1-29) (peptide; modification not given)
PX hNav1.7 Tonic IC50 [2]: 825 nM

Homodimeric Conjugate No. 6 (peptide; modification not given)
PX hNav1.7 Tonic IC50 [2]: 0.414 nM

Pra-[Nle6; 1-Nal24; Glu28]JzTx-V(1-29) (peptide; modification not given)
PX hNav1.7 Tonic IC50 [2]: 32 nM

Pra-[Nle6; Gly28]JzTx-V(1-29) (peptide; modification not given)
PX hNav1.7 Tonic IC50 [2]: 3.14 nM

Pra-[Nle6; Glu28]JzTx-V(1-29) (peptide; modification not given)
Nav1.4/Nav1.7 [1]: 253

Pra-[Nle6; His28]JzTx-V(1-29) (peptide; modification not given)
PX hNav1.7 Tonic IC50 [2]: 0.371 nM

Homodimeric Peptide No. 7 (peptide; modification not given)
Nav1.7 PX IC50 [2]: 2.12 nM

Pra-[Nle6; hPhe24; Glu28]JzTx-V(1-29) (peptide; modification not given)
PX hNav1.7 Tonic IC50 [2]: > 1000 nM

Pra-[2-Nal5; Nle6; Glu28]JzTx-V(1-29) (peptide; modification not given)
PX hNav1.7 Tonic IC50 [2]: 21.6 nM

Pra-[Nle6; Phe24; Glu28]JzTx-V(1-29) (peptide; modification not given)
PX hNav1.7 Tonic IC50 [2]: 15.3 nM

Pra-[Nle6; 2-Nal24; Glu28]JzTx-V(1-29) (peptide; modification not given)
PX hNav1.7 Tonic IC50 [2]: 182 nM

Pra-[Nle6, 28]JzTx-V(1-29) (peptide; modification not given)
PX hNav1.7 Tonic IC50 [2]: 0.339 nM

Pra-[Nle6; Glu28]JzTx-V(1-29)-Glu (peptide; modification not given)
PX hNav1.7 Tonic IC50 [2]: 32.4 nM

Pra-[1-Nal5; Nle6; Glu28]JzTx-V(1-29) (peptide; modification not given)
PX hNav1.7 Tonic IC50 [2]: 70.9 nM

[Glu20;Lys24;Tyr28]JzTx-V(1-29) (peptide; modification not given)
IC50, IonWorks Quattro electrophysiology [3]: > 5 µM
IC50, IonWorks Quattro electrophysiology [4]: > 5 µM
IC50, IonWorks Quattro electrophysiology [5]: > 5 µM
IC50, IonWorks Quattro electrophysiology [6]: 2.7 µM

[Nva20]JzTx-V(1-29) (peptide; modification not given)
IC50 (IonWorks Quattro) [3]: > 5000 nM
IC50 (IonWorks Quattro) [4]: 3100 nM
IC50 (IonWorks Quattro) [5]: 10400 nM
IC50 (IonWorks Quattro) [6]: 170 nM
